Results of unrelated studies side by side (data: NIAID ChemDB).

Common to all: growth or infection tests; agent: Candida tropicalis; measure: zone

Zones are inhibition diameters on agar.

structure | dose | strain | method | value
O=C(OC(CCn1ccnc1)c1ccccc1)c1cccnc1 | 1000 µg |  | agar diffusion | 16 mm
Nc1nc2nc(-c3ccccn3)c(-c3ccccn3)nc2c(=O)[nH]1 | 250 mg/mL |  |  | 30 mm
C=CC(C)(C)c1cc(C2CC(=O)c3c(cc(O)c(CC=C(C)C)c3O)O2)c(O)cc1O | 2 mg/mL | hemoculture isolate 16819 | agar diffusion / agar | 14 mm
CC(C)C[C@@H]1NC(=O)[C@H](C(C)C)NC1=O | 16 µg/mL | MTCC 184 | agar diffusion / agar | 21 mm
O=C(OC(CCn1ccnc1)c1ccccc1)c1ccc(C(F)(F)F)cc1 | 1000 µg |  | agar diffusion | 14 mm
O=c1[nH]cnc2nc(-c3ccccn3)c(-c3ccccn3)nc12 | 500 mg/mL |  |  | 30 mm
Cc1ccc(C(CCn2ccnc2)OC(=O)c2ccc(Cl)cc2)cc1 | 1000 µg |  | agar diffusion | 16 mm
Nc1[nH]c(=O)nc2nc(-c3ccccn3)c(-c3ccccn3)nc12 | 500 mg/mL |  |  | 26 mm
C[C@@H]1CC[C@]2(C(=O)O)CC[C@]3(C)C(=CCC4[C@@]5(C)C[C@@H](O)[C@H](O)[C@@](C)(CO)C5CC[C@]43C)C2[C@H]1C | 256 µg/mL |  | agar diffusion | 10.1 mm
O=c1ncc2nc(-c3ccccn3)c(-c3ccccn3)nc2[nH]1 | 250 mg/mL |  |  | 15 mm
CC(=O)N1CCN(c2ccc(OC[C@H]3CO[C@](Cn4ccnc4)(c4ccc(Cl)cc4Cl)O3)cc2)CC1 | 20 mg/mL | T2 | agar diffusion / agar | 10 mm
O=C(OC(CCn1ccnc1)c1ccc(Cl)cc1)c1ccc(Cl)cc1 | 1000 µg |  | agar diffusion | 14 mm
C[C@H]1[C@H](O)[C@@H](C)/C=C/C=C/C=C/C=C/C=C/C=C/C=C/[C@H](O[C@@H]2O[C@H](C)[C@@H](O)[C@H](N)[C@@H]2O)C[C@@H]2O[C@](O)(C[C@@H](O)C[C@@H](O)CC[C@H](O)[C@@H](O)C[C@@H](O)CC(=O)O[C@H]1C)C[C@H](O)[C@H]2C(=O)O | 100 µg/disc | Ct2 | agar diffusion | 22 mm
O=c1[nH]c(=S)[nH]c2nc(-c3ccccn3)c(-c3ccccn3)nc12 | 250 mg/mL |  |  | 15 mm
O=C(OC(CCn1ccnc1)c1ccccc1)c1ccncc1 | 1000 µg |  | agar diffusion | 19 mm

For reference, 2 entries again:

structure	dose	strain	method	value
O=c1[nH]cnc2nc(-c3ccccn3)c(-c3ccccn3)nc12	500 mg/mL			30 mm
Cc1ccc(C(CCn2ccnc2)OC(=O)c2ccc(Cl)cc2)cc1	1000 µg		agar diffusion	16 mm

Blank or dashed fields: not listed here. Lines come from different laboratories, so protocols vary.